Tested on: Escherichia coli
Assay: Ratio of MIC for Escherichia coli harboring beta-lactamase VIM-2 to MIC for Escherichia coli harboring beta-lactamase VIM-18
Type: functional

## CC1(C)S[C@@H]2[C@H](NC(=O)[C@H](N)c3ccccc3)C(=O)N2[C@H]1C(=O)O [AMPICILLIN]
  Ratio: >3

From ChEMBL document CHEMBL1629661, “Carbapenem resistance among Pseudomonas aeruginosa strains from India: evidence for nationwide endemicity of multiple metallo-beta-lactamase clones (VIM-2, -5, -6, and -11 and the newly characterized VIM-18)” (2009)
